Taken from: PubChem BioAssay AID1259414 (Drosophila RNAi Screening Center, 2018)

Test: 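Genome-wide screen for host control of endosymbiont load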 (primary screen)
Cell system: Drosophila JW18 cells infected with Wolbachia
Reagent: long dsRNA against Drosophila genes, 0.25 µg dsRNA per well of a 384-well plate
Duration: 5 days
Challenge: cells persistently infected with Wolbachia before knock-down; no added drug
Measurement: 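Automated imaging of bacterial rRNA staining divided by host cell count, reported as plate-normalised robust z-score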
Reading the numbers: Wolbachia per cell robust z: higher = more Wolbachia per host cell than the plate typical
Call rule: 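Hit when robust z is 1.5 or more, or -1.5 or less, in at least two of three replicates; excludes dsRNAs with several or no targets, genes not expressed in JW18 and well A1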
The screen tested about 24,000 reagents; shown is an unselected part of those that have a named target and a result. Of all reagents, about 1,210 (5%) were called active. 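Inactive calls also include excluded dsRNAs with several or no targets, genes unexpressed in JW18, and well A1, regardless of score.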 A number with no mark means an inactive call. Reagents against one gene are numbered here. Names joined by + are all predicted targets of the reagent.

predicted target | dsRNA no. | Wolbachia per cell robust z, rep 1 | Wolbachia per cell robust z, rep 2 | Wolbachia per cell robust z, rep 3
CG5478 | 1 | -1.74 | 0.186 | 0.99
beta4GalNAcTA (beta1,4-N-acetylgalactosaminyltransferase A) | 1 | 0.693 | 0.814 | 0.63
Cpr64Ac (Cuticular protein 64Ac) | 1 | -1.23 | 0.622 | 0.031
Cpr64Ac (Cuticular protein 64Ac) | 2 | -0.923 | 1.85 | 0.724
IM33 (Immune induced molecule 33) | 1 | 2.23 | -0.476 | 0.262
IM33 (Immune induced molecule 33) | 2 | -1.05 | -1.32 | -1.21
lncRNA:CR32658 (long non-coding RNA:CR32658) | 1 | 0.222 | -2.94 | -5.31
lncRNA:CR32658 (long non-coding RNA:CR32658) | 2 | -0.197 | -0.906 | -0.465
Dpm1 (Dolichyl-phosphate mannosyltransferase subunit 1) | 1 | 0.334 | 0.52 | 0.531
CG5397 | 1 | -0.541 | 1.74 | -0.438
CG5397 | 2 | 0.52 | 0.609 | -0.332
Naa15-16 (N(alpha)-acetyltransferase 15/16) | 1 | 0.619 | 1.09 | 0.899
Naa15-16 (N(alpha)-acetyltransferase 15/16) | 2 | -4.37 | -0.44 | -0.0212
Ube4A (Ubiquitination factor E4A) | 1 | -6.45 | 0.356 | 1.26
Snapin + HemK2 | 1 | -1.4 | -0.505 | -0.63
CG11986 | 1 | 0.718 | 0.619 | -4.08
CG11986 | 2 | 1.2 | -0.0593 | -0.151
CG3919 | 1 | -0.829 | -0.267 | 0.326
Or65c (Odorant receptor 65c) | 1 | -0.844 | -0.27 | -1.27
CG6901 | 1 | -0.825 | -0.388 | -0.895
CG6901 | 2 | -0.982 | -0.712 | -10.4
CG14667 | 1 | 0.977 | -0.305 | 0.312
CG14667 | 2 | 0.711 | -0.736 | -0.413
BG642312 | 1 | 1.06 | -4.63 | 1.38
CG45002 | 1 | 0.668 | 0.599 | -0.895
CG45002 | 2 | 1.97 | -0.00658 | 0.89
Nsf2 (N-ethylmaleimide-sensitive factor 2) | 1 | 0.878 | 0.705 | 1.02
Nsf2 (N-ethylmaleimide-sensitive factor 2) | 2 | -5.23 | -0.949 | -0.943
CG1690 | 1 | 0.628 | -3.49 | 0.761
Blos1 | 1 | 0.725 | 1.09 | -1.09
CG13955 | 1 | 1.47 | 1.74 | 1.21
CG34183 | 1 | -1.47 | -0.924 | -1.33
Pde1c (Phosphodiesterase 1c) | 1 | 0.117 | 0.549 | -0.64
Pde1c (Phosphodiesterase 1c) | 2 | -2.38 | 1.34 | 0.489
Pde1c (Phosphodiesterase 1c) | 3 | -0.48 | 1.72 | 1.34
Pde1c (Phosphodiesterase 1c) | 4 | -1.1 | -0.62 | -3.01
Pde1c (Phosphodiesterase 1c) | 5 | -2.42 | -1.86 | -1.19
Pde1c (Phosphodiesterase 1c) | 6 | -0.502 | -1.24 | -0.757
Pde1c (Phosphodiesterase 1c) | 7 | -0.0683 | 0.679 | -0.0411
CG31459 | 1 | 0.966 | 0.536 | 1.26
lcs (la costa) | 1 | 0.319 | -1.61 | 0.367
lcs (la costa) | 2 | 0.883 | 0.243 | -0.199
CG13131 | 1 | 0.562 | 0.995 | 0.134
Trs23 (TRAPP subunit 23) | 1 | 0.916 | 1.23 | 1.7
Trs23 (TRAPP subunit 23) | 2 | -0.571 | -7.68 | -0.307
Dolk (Dolichol kinase) | 1 | -3.12 | 0.135 | 1.03
Kdm4A (Lysine demethylase 4A) | 1 | -1.29 | 0.0807 | -1.71
Kdm4A (Lysine demethylase 4A) | 2 | -0.411 (active) | -6.85 | -7.34
CG4751 | 1 | -1.09 | -0.767 | -1.88
CG3078 | 1 | 0.496 | 0.603 | 0.148
CG3078 | 2 | 0.71 | 1.03 | 0.973
CG3078 | 3 | 0.629 | 0.0634 | -0.331
CR33319 (pseudo) | 1 | -0.142 | 0.381 | 0.573
CG33229 + lncRNA:CR42862 | 1 | -5.26 | -0.753 | -1.91

The list goes on, starting with the last 2 of the part before.
predicted target | dsRNA no. | Wolbachia per cell robust z, rep 1 | Wolbachia per cell robust z, rep 2 | Wolbachia per cell robust z, rep 3
CR33319 (pseudo) | 1 | -0.142 | 0.381 | 0.573
CG33229 + lncRNA:CR42862 | 1 | -5.26 | -0.753 | -1.91
Cpr65Ax2 + Cpr65Ax1 | 1 | -0.425 | 0.354 | -1.56
Mlf (Myelodysplasia/myeloid leukemia factor) | 1 | 1.07 (active) | 2.43 | 1.53
Mlf (Myelodysplasia/myeloid leukemia factor) | 2 | -0.68 | 0.193 | -0.891
CG6191 | 1 | 0.994 | 0.543 | 0.957
frma (fra mauro) | 1 | 1.53 | 0.794 | 0.294
frma (fra mauro) | 2 | -4.5 | -8.21 | -8.9
zuc (zucchini) | 1 | 0.943 | -0.324 | -0.402
CG4069 | 1 | -0.727 | -1.64 | -0.374
ninaB (neither inactivation nor afterpotential B) | 1 | -0.2 | -1.81 | -0.109
ninaB (neither inactivation nor afterpotential B) | 2 | -1.8 | 0.203 | -1.63
CG18507 | 1 | -0.209 | -0.0376 | -0.252
CG18507 | 2 | -0.493 | -0.64 | -0.864
CtsL1 (Cathepsin L1) | 1 | 0.348 | 0.946 | 0.802
CtsL1 (Cathepsin L1) | 2 | 0.0532 | -0.286 | -0.126
CtsL1 (Cathepsin L1) | 3 | -1.82 (active) | -2.29 | -2.38
Act42A (Actin 42A) | 1 | 1.6 (active) | 2.95 | 2.8
Act42A (Actin 42A) | 2 | 0.812 | 0.497 | 0.756
Rbbp5 + CR6434 | 1 | -3.13 (active) | -0.132 | -1.97
Sf3a2 (Splicing factor 3a subunit 2) | 1 | 0.281 | 1.18 | -8.65
CG18858 + CG31683 | 1 | -0.258 | 0.825 | 1.29
CG18858 + CG31683 | 2 | 0.716 | 0.525 | -0.505
CG3713 | 1 | 0.811 | -0.0125 | -1.13
CG14609 | 1 | -0.0647 | 0.0498 | -0.413
CG7083 | 1 | -1.64 | 1.15 | 1.36
CG7083 | 2 | -0.395 (active) | 2.87 | 1.91
CG12024 | 1 | -1.5 (active) | -0.745 | -1.71
CG12024 | 2 | 0.175 | -0.75 | -0.207
CG12024 | 3 | -1.8 | -0.464 | -0.15
WASp | 1 | -1.2 | 0.489 | -0.0924
WASp | 2 | -1.93 | -0.799 | -1.35
CG3815 | 1 | -0.888 | 0.774 | -0.384
CG3815 | 2 | -0.476 | -0.296 | -0.0435
CG3815 | 3 | -1.84 (active) | -2.99 | -1.19
